Experimental data: publication PMC4791643, “Reconstruction of diaminopimelic acid biosynthesis allows characterisation of Mycobacterium tuberculosis N-succinyl-L,L-diaminopimelic acid desuccinylase” (Scientific Reports, 2016)

What was measured:
[1] = test system: N[C@@H](CCC[C@H](NC(=O)CCC(=O)O)C(=O)O)C(=O)O; assay: purified protein; conditions: pH 8.0; 37.0 °C
[2] = test system: N[C@@H](CCC[C@H](NC(=O)CCCC(=O)O)C(=O)O)C(=O)O; assay: purified protein; conditions: pH 8.0; 37.0 °C

“MtDapE (Mycobacterium tuberculosis H37Rv)” gave a Km [1] of 31.09 ± 3.71 µM and a Km [2] of 1024 ± 645 µM.
